Test results published in PMC5358776, “Insight into the mechanism of action of temporin-SHa, a new broad-spectrum antiparasitic and antibacterial agent” (PLoS ONE, 2017).

What was measured:
[1] = system: Human fibroblasts (HFF)
[2] = system: Human THP-1 monocytes
[3] = system: Human HepG2
[4] = system: Rat erythrocytes
[5] = system: Human erythrocytes; assay: Hemolytic assay
[6] = system: Human THP-1-derived macrophages; assay: Cytotoxicity, Trypan blue staining
[7] = IC50 fibroblasts / MICGM Gram-negative strains
[8] = IC50 fibroblasts / MICGM Gram-positive strains
[9] = IC50 fibroblasts / MICGM yeast/fungal strains
[10] = IC50 THP1-monocytes / MICGM Gram-negative strains
[11] = IC50 THP1-monocytes / MICGM Gram-positive strains
[12] = IC50 THP1-monocytes / MICGM yeast/fungal strains
[13] = IC50 HepG2 / MICGM Gram-negative strains
[14] = IC50 HepG2 / MICGM Gram-positive strains
[15] = IC50 HepG2 / MICGM yeast/fungal strains
[16] = LC50 rat erythrocytes / MICGM Gram-negative bacteria
[17] = LC50 rat erythrocytes / MICGM Gram-positive bacteria
[18] = LC50 rat erythrocytes / MICGM yeasts/fungi
[19] = LC50 human erythrocytes / MICGM Gram-negative strains
[20] = LC50 human erythrocytes / MICGM Gram-positive strains
[21] = LC50 human erythrocytes / MICGM yeast/fungal strains
[22] = LC50 THP1-derived macrophages / MICGM Gram-negative strains
[23] = LC50 THP1-derived macrophages / MICGM Gram-positive strains
[24] = LC50 THP1-derived macrophages / MICGM yeast/fungal strains

Substance | Therapeutic index (T.I.) [1, 7] | Therapeutic index (T.I.) [1, 8] | Therapeutic index (T.I.) [1, 9] | Therapeutic index (T.I.) [2, 10] | Therapeutic index (T.I.) [2, 11] | Therapeutic index (T.I.) [2, 12] | Therapeutic index (T.I.) [3, 13] | Therapeutic index (T.I.) [3, 14] | Therapeutic index (T.I.) [3, 15] | Therapeutic index (T.I.) [4, 16] | Therapeutic index (T.I.) [4, 17] | Therapeutic index (T.I.) [4, 18] | Therapeutic index (T.I.) [5, 19] | Therapeutic index (T.I.) [5, 20] | Therapeutic index (T.I.) [5, 21] | Therapeutic index (T.I.) [6, 22] | Therapeutic index (T.I.) [6, 23] | Therapeutic index (T.I.) [6, 24]
FLSGIVGMLGKLF-NH2 [SHa, temporin-SHa] | 13.9 | 33.3 | 6.4 | 8.3 | 20 | 3.8 | 38.9 | 93.3 | 18 | 1.7 | 4.2 | 0.8 | 1.7 | 4.2 | 0.8 | 4.2 | 10 | 1.9
FLKGIVGMLGKLF-NH2 [[K^3]SHa, [K^3]temporin-SHa] | 52.6 | 71.4 | 26 | 12.6 | 17.1 | 6.2 | 94.2 | 127.8 | 46.5 | 6.8 | 9.3 | 3.4 | 13.1 | 17.8 | 6.5 | 14.5 | 19.6 | 7.1

Where two headings read alike, the source gives them in different places. Where no end group is shown, it is not given here.
